Record: PubChem BioAssay AID1224833 (University of Georgia, 2016)
This is an unselected part of about 12,000 deposited reagents. About 5,600 of them (46%) count as active. 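Active calls cover z-scores past 1 in both directions, so they include lowered as well as raised rotavirus replication.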

Purpose: 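Human genes whose knock-down alters rotavirus replication in monkey cells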 (primary screen)
Cell system: monkey MA104 kidney cells
Reagents: siRNA pool against human genes, 50 nM
Time to read-out: 48 h knock-down before infection; read 24 h after infection
Challenge: infection with rotavirus strain RV3 two days after transfection; infectious dose for this stage not given
Measurement: 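z-score of rotavirus antigen signal per well, from a fluorescent immunoassay, relative to non-targeting control wells on the same plate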
Reading the numbers: z-score vs non-targeting control: higher = more rotavirus replication than with non-targeting control
Rule for the call: In these data the active calls have z-score vs non-targeting control at about -1 or lower, or at about 1 or higher
Meaning of the calls: active = z-score beyond 1 either way; inactive = z-score within 1 of zero

gene symbol | PubChem SID | z-score vs non-targeting control | call
AMIGO2 | SID329584168 | 0.428 | inactive
BMF | SID329581951 | -0.64 | inactive
SEC31A | SID329577693 | -0.0093 | inactive
SUCLG2 | SID329576292 | -1.92 | active
HEMK2 | SID329578663 | -1.05 | active
JUP | SID329574206 | 0.807 | inactive
SHCBP1L | SID329581339 | 0.986 | inactive
HBP1 | SID329578448 | 1.15 | active
ETV7 | SID329579100 | -2.23 | active
ZNF177 | SID329575912 | 0.169 | inactive
IKZF1 | SID329577098 | 0.972 | inactive
CD38 | SID329573077 | 0.838 | inactive
ARMCX3 | SID329579126 | -0.958 | inactive
TERF2IP | SID329579269 | 1.28 | active
OR2AT4 | SID329584091 | -0.927 | inactive
FBLN5 | SID329577208 | 0.96 | inactive
TCIRG1 | SID329577092 | -2.25 | active
TCEAL2 | SID329582795 | 0.466 | inactive
CENPN | SID329579897 | -1.8 | active
ANKS1A | SID329577923 | -2.73 | active
PCP4 | SID329574768 | 1.84 | active
DEFA4 | SID329573391 | -1.24 | active
POLR1E | SID329580635 | 0.623 | inactive
SLC5A9 | SID329583394 | -1.55 | active
NEIL2 | SID329583670 | 0.822 | inactive
GP9 | SID329573819 | -1.83 | active
NSRP1 | SID329581516 | 1.01 | active
ZNF233 | SID329584204 | -0.0995 | inactive
BSDC1 | SID329579570 | 1.01 | active
CHCT1 | SID329582495 | 1.61 | active
CPOX | SID329573245 | -1.26 | active
KLHL3 | SID329578356 | -0.552 | inactive
OR2T12 | SID329582564 | -0.582 | inactive
EPN2 | SID329577715 | -0.799 | inactive
ZNF276 | SID329582089 | 0.909 | inactive
TMEM115 | SID329577518 | -0.0502 | inactive
DBT | SID329573368 | -1.23 | active
TLL2 | SID329575657 | 0.506 | inactive
PHYHIPL | SID329581629 | 0.292 | inactive
CAVIN2 | SID329576109 | 0.869 | inactive
SFRP1 | SID329575299 | 2.17 | active
KRTCAP2 | SID329583403 | 0.867 | inactive
PRX | SID329580367 | -0.313 | inactive
TMEM176A | SID329579713 | 1.02 | active
PAGE5 | SID329581969 | -1.51 | active
LRP5 | SID329574331 | 1.56 | active
ATP6V1H | SID329579143 | -0.646 | inactive
HNRNPC | SID329573999 | 1.33 | active
OR4D11 | SID329583545 | -0.284 | inactive
AP5B1 | SID329581985 | 1.84 | active
FASTKD2 | SID329577689 | 0.195 | inactive
SNRPF | SID329575424 | -0.125 | inactive
HOXA5 | SID329574012 | -0.576 | inactive
OR9A4 | SID329582651 | 0.764 | inactive
COX6B2 | SID329582519 | -0.732 | inactive
CLEC10A | SID329577172 | -0.321 | inactive
SPATA20 | SID329580700 | 0.576 | inactive
MLEC | SID329576776 | 0.465 | inactive
RBBP8NL | SID329582838 | -0.0688 | inactive
CHURC1 | SID329582013 | -1.67 | active
H3-4 | SID329576045 | -0.415 | inactive
BECN1 | SID329576234 | 0.966 | inactive
CLEC2A | SID329584307 | -1.25 | active
PPIL1 | SID329579158 | -0.674 | inactive
BORCS6 | SID329579387 | -0.792 | inactive
ANO3 | SID329580541 | -1.41 | active
HSPB7 | SID329578502 | 0.212 | inactive
TCTN3 | SID329578320 | 0.0162 | inactive
COX5A | SID329576564 | -0.941 | inactive
WDR83OS | SID329579055 | 0.29 | inactive
CIMIP5 | SID329582667 | 1.62 | active
CADM3 | SID329580398 | -0.374 | inactive
SGTA | SID329575313 | -1.04 | active
EFNB2 | SID329573495 | 0.403 | inactive
CDH17 | SID329573116 | 1.2 | active
SALL3 | SID329578517 | -0.309 | inactive
ARHGEF17 | SID329576821 | 0.836 | inactive
DEF6 | SID329578805 | -0.512 | inactive
MROH8 | SID329582809 | -1.73 | active
AGTR2 | SID329572728 | -1.91 | active
PRDX3 | SID329577434 | -1.02 | active
TNFRSF10A | SID329576291 | -0.63 | inactive
TLR7 | SID329579000 | -0.832 | inactive
ASCC1 | SID329578850 | 0.471 | inactive
RAI2 | SID329577339 | -0.914 | inactive
CCL28 | SID329580034 | -0.149 | inactive
SPRR3 | SID329575473 | 0.49 | inactive
APLP1 | SID329572784 | 0.884 | inactive
PRMT8 | SID329580031 | -1.22 | active
IGFL4 | SID329584619 | 0.129 | inactive
SLC17A8 | SID329583663 | -2.32 | active
PPP1R14C | SID329581351 | 1.83 | active
PARP6 | SID329580115 | -1.21 | active
PDSS2 | SID329580161 | 1.17 | active
PYY | SID329574983 | 0.687 | inactive
SERF2 | SID329577008 | -0.264 | inactive
SAMD8 | SID329582844 | -1.6 | active
OR4D2 | SID329582489 | -0.367 | inactive
ZNF652 | SID329577670 | -0.669 | inactive
RAB21 | SID329577762 | -0.837 | inactive
ZBTB3 | SID329581035 | -0.515 | inactive
GBX2 | SID329573733 | 0.592 | inactive
PSMD1 | SID329574991 | -4.39 | active
IL36B | SID329578522 | -0.812 | inactive
TROAP | SID329576924 | 1.46 | active
OVCH1 | SID329584093 | 0.902 | inactive
EN1 | SID329573536 | 1.34 | active
PCDHGB2 | SID329579962 | 0.339 | inactive
TNPO1 | SID329574232 | -0.607 | inactive
ZNF71 | SID329580413 | 0.542 | inactive
